Measurements published in PMC8033486 (Frontiers in Pharmacology, 2021).

Legend:
[1] = tested on: SARS-CoV-2; settings: for IC50 (Mean +/- SD): interferons, Vero E6, cytopathic effect 3 days after infection
[2] = tested on: Vero E6 cells; settings: interferons; Vero E6, no virus, 3 days

For Interferon-2α, the “Inhibition of SARS-CoV-2-induced cytopathic effect, result in words” value ([1]; Vero E6) was “displayed antiviral activity”, the “IC50 (Mean +/- SD)” value [1] was 8.1+/−0.7 × 10^2 IU/mL and the “IC50 (Mean +/- SD)” value ([1]; listed as Interferon 2 alpha) was 8.1+/-0.7 × 10^2 IU/mL. For the same substance, the CC50 [2] was > 100 × 10^2 IU/mL.

Read-outs that look alike come from different tables or passages of the source.
